Measurements reported in patent US20210054055A1.

Target: PRV (Zika virus)

**Q.** For EDE1 mAb C10 (antibody), which FRNT50 (focus reduction neutralization on Vero cells) is on record?
**A.** 40.3 ng/mL
